{"source": "PubChem BioAssay AID504761 (Drosophila RNAi Screening Center, 2011)", "purpose": "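Genome-wide fly cell screen for genes dengue virus requires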 (primary screen)", "cell system": "D.Mel-2 cells from Drosophila", "reagent": "long dsRNA against Drosophila genes", "challenge": "infection with dengue virus type 2; dose and infection time not stated", "detection": "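Per well on two replicate plates, imaging gave the percent of cells positive for viral envelope protein, ranked by infection, and a nuclear count of cells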", "scale": "infection score: higher = more virus-infected cells", "call rule": "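Low infection ranks in the two replicates (chance level up to 0.065) followed by a retest with a 1.5-fold or larger significant decrease, p below 0.05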", "calls": "active = confirmed: knock-down lowers infection; inactive = not picked or not confirmed", "note": "The screen tested about 22,000 reagents; below is an unselected part of those that have a named target and a result. Of all reagents, 116 (0.52%) were called active. 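Calls depend on retest data that are not deposited; infection was ranked per plate without normalising between plates; the unit of the infection score is not given.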 Further read-outs or replicates are left out here. Not given: the amount of reagent, the time to read-out."}
{"target gene": "CG2209", "dsRNA": "DRSC19843", "infection score, replicate 1": 2.14, "activity call": "inactive"}
{"target gene": "qkr54B", "dsRNA": "DRSC07670", "infection score, replicate 1": 23.5, "activity call": "inactive"}
{"target gene": "qkr54B", "dsRNA": "DRSC24863", "infection score, replicate 1": 2.26, "activity call": "inactive"}
{"target gene": "msopa", "dsRNA": "DRSC23240", "infection score, replicate 1": 0.53, "activity call": "inactive"}
{"target gene": "qm", "dsRNA": "DRSC11386", "infection score, replicate 1": 2.35, "activity call": "inactive"}
{"target gene": "qm", "dsRNA": "DRSC26597", "infection score, replicate 1": 2.11, "activity call": "inactive"}
{"target gene": "Fst", "dsRNA": "DRSC16491", "infection score, replicate 1": 26.6, "activity call": "inactive"}
{"target gene": "Fst", "dsRNA": "DRSC24483", "infection score, replicate 1": 1.51, "activity call": "inactive"}

Reformatted: entries from further up
target gene,dsRNA,"infection score, replicate 1",activity call
qkr54B,DRSC24863,2.26,inactive
msopa,DRSC23240,0.53,inactive

The results go on.
{"target gene": "CG30427", "dsRNA": "DRSC04014", "infection score, replicate 1": 6.03, "activity call": "inactive"}
{"target gene": "CG30427", "dsRNA": "DRSC04311", "infection score, replicate 1": 24.9, "activity call": "inactive"}
{"target gene": "CG30427", "dsRNA": "DRSC04323", "infection score, replicate 1": 2.77, "activity call": "inactive"}
{"target gene": "CG30427", "dsRNA": "DRSC26361", "infection score, replicate 1": 11, "activity call": "inactive"}
{"target gene": "CG8301", "dsRNA": "DRSC16405", "infection score, replicate 1": 3.71, "activity call": "inactive"}
{"target gene": "CG8301", "dsRNA": "DRSC28170", "infection score, replicate 1": 17.4, "activity call": "inactive"}
{"target gene": "CG1354", "dsRNA": "DRSC17902", "infection score, replicate 1": 6.76, "activity call": "inactive"}
{"target gene": "Rab39", "dsRNA": "DRSC17827", "infection score, replicate 1": 32.8, "activity call": "inactive"}
{"target gene": "CG3246", "dsRNA": "DRSC00584", "infection score, replicate 1": 6.88, "activity call": "inactive"}
{"target gene": "CG16952", "dsRNA": "DRSC19759", "infection score, replicate 1": 8.05, "activity call": "inactive"}
{"target gene": "Zw10", "dsRNA": "DRSC18793", "infection score, replicate 1": 2.91, "activity call": "inactive"}
{"target gene": "Zw10", "dsRNA": "DRSC25620", "infection score, replicate 1": 2.85, "activity call": "inactive"}
{"target gene": "CG9624", "dsRNA": "DRSC16523", "infection score, replicate 1": 2.74, "activity call": "inactive"}
